## PSTVd loop 15 mutant pool in Nicotiana benthamiana

Reference: Wu et al. 2024, doi:10.1371/journal.ppat.1012142.

PSTVd intermediate strain, loop 15: wild type GGAAACCGCUACUAC, pool pattern GGAAACCGNNNNNNC; upper and lower strand joined, each 5' to 3', the first 7 letters being the upper strand, closing pairs included.

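A pool of all variants was put on leaves of three Nicotiana benthamiana plants. Samples came from the inoculated region at 5 days, the leaf margin at 10 and upper systemic leaves at 12.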

Values are reads per thousand in the sample; higher means more abundant, 0 means not found. Each value is the mean of three plants. "Pool" is the share in the plasmid pool used as inoculum, on the same scale. The inoculated region was read from the minus strand, the other sites from the plus strand.

GGAAACCGGUAGCGC (pool 0.176) gave inoculated region 0.100; leaf margin 0.0208; systemic leaves 0.
GGAAACCGAAGUUUC (pool 0.240) gave inoculated region 0.0841; leaf margin 0.0343; systemic leaves 0.
GGAAACCGCAUGUUC (pool 0.192) gave inoculated region 0.307; leaf margin 0.137; systemic leaves 0.00537.
GGAAACCGCUGACCC (pool 0.240) gave inoculated region 0.104; leaf margin 0.0208; systemic leaves 0.
GGAAACCGUAGAGAC (pool 0.224) gave inoculated region 0.0848; leaf margin 0.00539; systemic leaves 0.00537.
GGAAACCGGUCAUGC (pool 0.256) gave inoculated region 0.109; leaf margin 0.00742; systemic leaves 0.
GGAAACCGAAGUCUC (pool 0.208) gave inoculated region 0.0739; leaf margin 0.00539; systemic leaves 0.
GGAAACCGGAACGGC (pool 0.256) gave inoculated region 0.0960; leaf margin 0.0316; systemic leaves 0.
GGAAACCGGCUCGUC (pool 0.144) gave inoculated region 0.0923; leaf margin 0.0141; systemic leaves 0.
GGAAACCGUCUGAUC (pool 0.176) gave inoculated region 0.104; leaf margin 0.00668; systemic leaves 0.00537.
GGAAACCGGAUGUAC (pool 0.176) gave inoculated region 0.376; leaf margin 0.106; systemic leaves 0.0161.
GGAAACCGCAUUCGC (pool 0.112) gave inoculated region 0.109; leaf margin 0; systemic leaves 0.
GGAAACCGAAAGCCC (pool 0.256) gave inoculated region 0.0894; leaf margin 0.0175; systemic leaves 0.
GGAAACCGGAAAGUC (pool 0.240) gave inoculated region 0.0505; leaf margin 0; systemic leaves 0.
GGAAACCGCUUCGAC (pool 0.240) gave inoculated region 0.110; leaf margin 0.0195; systemic leaves 0.
GGAAACCGCAGCGAC (pool 0.112) gave inoculated region 0.0784; leaf margin 0.00742; systemic leaves 0.
GGAAACCGCGAGGAC (pool 0.160) gave inoculated region 0.329; leaf margin 0.117; systemic leaves 0.0898.
GGAAACCGCUGCGGC (pool 0.192) gave inoculated region 0.0975; leaf margin 0.0208; systemic leaves 0.
GGAAACCGAUAUCCC (pool 0.224) gave inoculated region 0.0920; leaf margin 0.00668; systemic leaves 0.
GGAAACCGCUCCUGC (pool 0.288) gave inoculated region 0.0777; leaf margin 0.0175; systemic leaves 0.
GGAAACCGUCCGGUC (pool 0.272) gave inoculated region 0.528; leaf margin 0.101; systemic leaves 0.0107.
GGAAACCGAGCGAGC (pool 0.208) gave inoculated region 0.0985; leaf margin 0; systemic leaves 0.
GGAAACCGAACACAC (pool 0.208) gave inoculated region 0.102; leaf margin 0.00668; systemic leaves 0.
GGAAACCGCAUAUCC (pool 0.336) gave inoculated region 0.161; leaf margin 0.00539; systemic leaves 0.
GGAAACCGAAAAUGC (pool 0.224) gave inoculated region 0.404; leaf margin 0.0993; systemic leaves 0.0211.
GGAAACCGAAGCUAC (pool 0.256) gave inoculated region 0.422; leaf margin 0.107; systemic leaves 0.0130.
GGAAACCGUUGACGC (pool 0.240) gave inoculated region 0.133; leaf margin 0.0200; systemic leaves 0.0130.
GGAAACCGAUGAGCC (pool 0.160) gave inoculated region 0.0881; leaf margin 0.00539; systemic leaves 0.
GGAAACCGCGCUUUC (pool 0.176) gave inoculated region 0.254; leaf margin 0.107; systemic leaves 0.0161.
GGAAACCGAGUUCAC (pool 0.0960) gave inoculated region 0.0450; leaf margin 0; systemic leaves 0.
GGAAACCGAAUUUUC (pool 0.272) gave inoculated region 0.114; leaf margin 0; systemic leaves 0.00537.
GGAAACCGCGAAUAC (pool 0.288) gave inoculated region 0.390; leaf margin 0.115; systemic leaves 0.0442.
GGAAACCGGUACAGC (pool 0.144) gave inoculated region 0.117; leaf margin 0; systemic leaves 0.
GGAAACCGGGGAUGC (pool 0.176) gave inoculated region 0.0716; leaf margin 0.00539; systemic leaves 0.
GGAAACCGUGCGAAC (pool 0.224) gave inoculated region 0.320; leaf margin 0.959; systemic leaves 0.0556.
GGAAACCGUCGGCCC (pool 0.208) gave inoculated region 0.0950; leaf margin 0.0121; systemic leaves 0.00760.
GGAAACCGUAGAUAC (pool 0.240) gave inoculated region 0.306; leaf margin 0.0605; systemic leaves 0.0360.
GGAAACCGUUGUAUC (pool 0.0640) gave inoculated region 0.359; leaf margin 0.109; systemic leaves 0.
GGAAACCGUCCUGGC (pool 0.160) gave inoculated region 0.303; leaf margin 0.0121; systemic leaves 0.00537.

The first 2 entries again:

sequence,pool,inoculated region,leaf margin,systemic leaves
GGAAACCGGUAGCGC,0.176,0.100,0.0208,0
GGAAACCGAAGUUUC,0.240,0.0841,0.0343,0

Samples held 43,870 to 66,106 reads, so the smallest values rest on one or two reads. Sequences that differ at fixed positions probably stem from PCR or sequencing errors, and defective variants can be carried along by functional ones. For reference, wild type rose from 33.9 per thousand in the pool to 202, 200, 159 (inoculated region), 724, 746, 710 (leaf margin) and 856, 883, 880 (systemic leaves).